Laboratory results from patent US4022962A, “Carbamylguanidine antimicrobial compounds” (Cooper Laboratories, Inc., priority 1975, dated 1977).

Assay: taste panel

Compound	taste (aqueous solutions at the concentration useful for microbial inhibition)	bitter taste (compared with chlorhexidine)
N=C(NCCCCCCNC(=N)NC(=O)Nc1ccc(Cl)cc1)NC(=O)Nc1ccc(Cl)cc1 [1,6-bis(4-chlorophenylcarbamylguanidino)hexane digluconate]	essentially tasteless	
[H]/N=C(\N/C(=N/[H])NCCCCCCNC(=N)NC(=N)Nc1ccc(Cl)cc1)Nc1ccc(Cl)cc1 [chlorhexidine, 1,6-bis-(p-chlorophenylbiguanidino)hexane]		bitter taste
